Pooled drug test results. Numbers come from NIAID ChemDB, via PubChem.

Common to all: tests in culture; organism: HIV-2; cell line: MT-4; endpoint: EC50

Lines come from different laboratories, so protocols vary. ECn: concentration that inhibits the pathogen or its effect by n%. An empty or dashed field is not shown.

SMILES | strain or isolate | read by | setting | value
Nc1nc2c(ncn2CCC(CO)CO)c(=O)[nH]1 | ROD | cytopathic effect / MTT |  | >493 µM
C#CCn1cc(C)c(=O)[nH]c1=O | ROD | cytopathic effect |  | >100 µg/mL
COc1cc2c(cc1OC)C1=NOC(c3ccccc3)C1C2 | ROD | MTT |  | >10.76 µM
Cc1[nH]c(=S)n(Nc2cccc(Cl)c2)c1-c1cccc(C#N)c1 | ROD | cytopathic effect / MTT |  | >99.4 µM
N#Cc1ccc(Nc2nccc(C(Cl)c3ccc(Br)cc3)n2)cc1 | ROD | cytopathic effect |  | 32.5 µM
Clc1ccc(-c2nnc3sc(CC45CC6CC(CC(C6)C4)C5)nn23)cc1 | ROD | cytopathic effect / MTT |  | >125 µg/mL
Cc1cn([C@@H]2O[C@@H]3CN[C@@]4(OCC(C)(C)C)CS(=O)(=O)O[C@@]34[C@H]2O)c(=O)[nH]c1=O | ROD |  |  | >250 µM
C[C@]12CCC3C(CC[C@H]4C[C@@H](CCC=C(c5cc(Cl)c(O)c(C(=O)O)c5)c5cc(Cl)c(O)c(C(=O)O)c5)CC[C@]34C)C1CC[C@@H]2CCC=C(c1cc(Cl)c(O)c(C(=O)O)c1)c1cc(Cl)c(O)c(C(=O)O)c1 | ROD | cytopathic effect / MTT |  | 74 µM
Cc1cc(C)c(Oc2ncc(N)c(Nc3ccc(C#N)cc3)n2)c(C)c1 | ROD | MTT |  | >10 µM
COc1ccc(N(C)C(=O)[C@H](Cc2cc(F)cc(F)c2)NC(=O)CN2CCN(S(=O)(=O)c3ccccc3[N+](=O)[O-])CC2=O)cc1 | ROD | MTT |  | 1.19 µM
N#Cc1ccc(Nc2nccc(C(Cl)c3cccc4ccccc34)n2)cc1 | ROD | cytopathic effect |  | 11.3 µM
CCc1nc(NCN2C(=O)C(=Nc3ccc(S(=O)(=O)Nc4ncnc(OC)c4OC)cc3)c3ccccc32)nc(N)c1-c1ccc(Cl)cc1 | ROD | cytopathic effect / MTT |  | >2 µg/mL
Cc1[nH]c(=S)n(Nc2ccccc2Cl)c1-c1ccccc1 | ROD | cytopathic effect / MTT |  | >162 µM
COc1c(Cl)cc(C(=CCCCCN(C(=O)C=C(c2cc(Cl)c(OC)c(C(=O)O)c2)c2cc(Cl)c(OC)c(C(=O)O)c2)[C@H]2CC[C@]3(C)C4CC[C@@]5(C)C(CC[C@@H]5C(C)CCCC(C)C)C4CC[C@H]3C2)c2cc(Cl)c(OC)c(C(=O)O)c2)cc1C(=O)O | ROD | cytopathic effect / MTT |  | 8.2 µM
Cc1cc(Br)cc(C)c1Oc1ncc([N+](=O)[O-])c(Nc2ccc(C#N)cc2)n1 | ROD | MTT |  | >202.3 µM
COc1cc2c(cc1OC)C1=NOC(c3cccc(N)c3)C1C2 | ROD | MTT |  | >13.83 µM
O=C(COc1cccc2ccccc12)NN=CCc1ccccc1 | ROD | MTT |  | >62.68 µg/mL
Cc1cn([C@@H]2O[C@@H]3CN[C@@]4(OCCO)CS(=O)(=O)O[C@@]34[C@H]2O)c(=O)[nH]c1=O | ROD |  |  | >250 µM
CCc1nc(NCN2C(=O)C(=Nc3ccc(S(=O)(=O)Nc4ncnc(OC)c4OC)cc3)c3cc(C)ccc32)nc(N)c1-c1ccc(Cl)cc1 | ROD | cytopathic effect / MTT |  | >7 µg/mL
COc1ccc(N(C)C(=O)[C@H](Cc2cc(F)cc(F)c2)NC(=O)CN2CCN(S(=O)(=O)c3cccc([N+](=O)[O-])c3)CC2=O)cc1 | ROD | MTT |  | 0.17 µM
Cc1cc2nc(-c3c(F)cccc3F)n(Cc3c(F)cccc3F)c2cc1C | ROD | RT activity |  | >6.15 µM
N#Cc1ccc(Nc2nc(Oc3c(Br)cc(Br)cc3Br)ncc2[N+](=O)[O-])cc1 | ROD | MTT |  | >20 µM
CC(=O)Nc1nc2c(ncn2Cc2cn(COCCO)nn2)c(=O)[nH]1 | ROD | cytopathic effect |  | >100 µg/mL
Cc1cc(Br)cc(C)c1Oc1ncc(N)c(Nc2ccc(C#N)cc2)n1 | ROD | MTT |  | >31 µM
COc1cc2c(cc1OC)C1=NOC(c3ccc(Cl)cc3)C1C2 | ROD | MTT |  | >1.36 µM
Cc1ccccc1-c1nnc2sc(CC34CC5CC(CC(C5)C3)C4)nn12 | ROD | cytopathic effect / MTT |  | >11.5 µg/mL
C#CCn1cnc2c(N)ncnc21 | ROD | cytopathic effect |  | >100 µg/mL
Fc1ccccc1-c1nnc2sc(CC34CC5CC(CC(C5)C3)C4)nn12 | ROD | cytopathic effect / MTT |  | >14.9 µg/mL
COc1ccc(CCNc2nc(NC(=S)Nc3ccc4ccccc4c3)nc(Oc3cc(=O)oc4ccccc34)n2)cc1OC | ROD | MTT |  | >54.6 µg/mL
COc1ccc(N(C)C(=O)[C@H](Cc2cc(F)cc(F)c2)NC(=O)CN2CCN(S(=O)(=O)c3cccc(C)c3)CC2=O)cc1 | ROD | MTT |  | 0.12 µM
Fc1ccc(-c2nnc3sc(CC45CC6CC(CC(C6)C4)C5)nn23)cc1 | ROD | cytopathic effect / MTT |  | >65.33 µg/mL
COc1cc2nc(-c3c(F)cccc3Cl)n(Cc3c(F)cccc3Cl)c2cc1Cc1c(F)cccc1Cl | ROD | RT activity |  | >18.75 µM
O=C1c2ccccc2N(Cc2cccc3ccccc23)S(=O)(=O)N1Cc1ccccc1 | ROD | p24 |  | >125 µM
O=C(OC[C@H]1O[C@@H](OC(=O)c2cc(OS(=O)(=O)O)c(OS(=O)(=O)O)c(OS(=O)(=O)O)c2)[C@H](OC(=O)c2cc(OS(=O)(=O)O)c(OS(=O)(=O)O)c(OS(=O)(=O)O)c2)[C@@H](OC(=O)c2cc(OS(=O)(=O)O)c(OS(=O)(=O)O)c(OS(=O)(=O)O)c2)[C@@H]1OC(=O)c1cc(OS(=O)(=O)O)c(OS(=O)(=O)O)c(OS(=O)(=O)O)c1)c1cc(OS(=O)(=O)O)c(OS(=O)(=O)O)c(OS(=O)(=O)O)c1 | ROD | MTT | 5 d | 0.22 µg/mL
Clc1cccc(-c2nnc3sc(CC45CC6CC(CC(C6)C4)C5)nn23)c1 | ROD | cytopathic effect / MTT |  | >125 µg/mL
COc1ccc(N(C)C(=O)[C@H](Cc2cc(F)cc(F)c2)NC(=O)CN2CCN(S(=O)(=O)c3cccc(Br)c3)CC2=O)cc1 | ROD | MTT |  | 0.35 µM
O=S1(=O)N=C(OCc2ccccc2)c2ccccc2N1Cc1ccc(Cl)c(Cl)c1 | ROD | p24 |  | >125 µM
Brc1ccccc1-c1nnc2sc(CC34CC5CC(CC(C5)C3)C4)nn12 | ROD | cytopathic effect / MTT |  | >24.7 µg/mL
N#Cc1ccc(Nc2nccc(C(Br)c3ccccc3)n2)cc1 | ROD | cytopathic effect |  | 69 µM
CC(=O)OCCOCn1cc(Cn2cc(C)c(=O)[nH]c2=O)nn1 | ROD | cytopathic effect |  | >100 µg/mL
Cc1cc(C(Cl)c2ccc(C(C)(C)C)cc2)nc(Nc2ccc(C#N)cc2)n1 | ROD | cytopathic effect |  | 31.9 µM
CC(=O)OCCOCn1cc(Cn2cc(I)c(=O)[nH]c2=O)nn1 | ROD | cytopathic effect |  | >100 µg/mL
COc1c(Cl)cc(C(=CCCCCN[C@H]2CC[C@]3(C)C4CC[C@@]5(C)C(CC[C@@H]5C(C)CCCC(C)C)C4CC[C@H]3C2)c2cc(Cl)c(OC)c(C(=O)O)c2)cc1C(=O)O | ROD | cytopathic effect / MTT |  | >150 µM
COc1cc2c(cc1OC)C1=NOC(c3ccc(F)cc3)C1C2 | ROD | MTT |  | 63.55 µM
CC(=O)Nc1nc2c(ncn2Cc2cn(COCCOC(C)=O)nn2)c(=O)[nH]1 | ROD | cytopathic effect |  | >100 µg/mL
COc1c(Cl)cc(C(=CCCNC(=O)C[C@H]2CC[C@]3(C)C4CC[C@@]5(C)C(CC[C@@H]5CC(=O)NCCC=C(c5cc(Cl)c(OC)c(C(=O)O)c5)c5cc(Cl)c(OC)c(C(=O)O)c5)C4CC[C@H]3C2)c2cc(Cl)c(OC)c(C(=O)O)c2)cc1C(=O)O | ROD | cytopathic effect / MTT |  | 52 µM
CC(C)CN(C[C@@H](O)[C@H](Cc1cc(F)cc(F)c1)NC(=O)O[C@H]1CO[C@H]2OC[C@H](NC(C)C)[C@H]21)S(=O)(=O)c1ccc2nc(NC3CC3)sc2c1 | EHO | MTT / p24 |  | 0.0000045 µM
O=C1c2ccccc2N(Cc2ccc(Cl)cc2)S(=O)(=O)N1Cc1ccc(Cl)cc1 | ROD | p24 |  | >125 µM
C#CCO[C@]12CS(=O)(=O)O[C@@]13[C@@H](CN2)O[C@@H](n1cc(C)c(=O)[nH]c1=O)[C@@H]3O[Si](C)(C)C(C)(C)C | ROD |  |  | >25 µM
Cc1cn(C2OC(CO[Si](C)(C)C(C)(C)C)C3(OS(=O)(=O)C=C3N)C2O[Si](C)(C)C(C)(C)C)c(=O)n(CCCNC(=O)c2ccc(N=[N+]=[N-])cc2O)c1=O | ROD | trypan blue |  | >50 µM
COc1ncnc(NS(=O)(=O)c2ccc(N=C3C(=O)N(CN4CCOCC4)c4ccccc43)cc2)c1OC | ROD | cytopathic effect / MTT |  | >1 µg/mL
CCOC(=O)CNc1nc(Nc2ccc(Br)cc2)nc(Oc2cc(=O)oc3ccccc23)n1 | ROD | MTT |  | >51.28 µg/mL
CC(=O)OCCOCn1cc(Cn2ccc(=O)[nH]c2=O)nn1 | ROD | cytopathic effect |  | >100 µg/mL
S=c1[nH]c(-c2ccccc2)c(-c2ccccc2)n1Nc1cccc(Cl)c1 | ROD | cytopathic effect / MTT |  | >36.31 µM
Cc1ccc2nc(-c3c(F)cccc3F)n(Cc3c(F)cccc3F)c2c1 | ROD | RT activity |  | >30.45 µM
COc1ccc(CCNc2nc(NC(=O)Nc3ccc(Br)cc3)nc(Oc3cc(=O)oc4ccccc34)n2)cc1OC | ROD | MTT |  | >47.63 µg/mL
COc1ccc(N(C)C(=O)[C@H](Cc2cc(F)cc(F)c2)NC(=O)CN2CCN(S(=O)(=O)c3ccccc3N)CC2=O)cc1 | ROD | MTT |  | 0.14 µM
CC(=O)Nc1cnc(Oc2c(Cl)cc(Cl)cc2Cl)nc1Nc1ccc(C#N)cc1 | ROD | MTT |  | >33 µM
Cc1cn(C2OC(CO[Si](C)(C)C(C)(C)C)C3(OS(=O)(=O)C=C3N)C2O[Si](C)(C)C(C)(C)C)c(=O)n(CC(=O)N(CCCl)CCCl)c1=O | ROD | trypan blue |  | >125 µM
COc1ccc(C2ON=C3c4cc(OC)c(OC)cc4CC32)cc1 | ROD | MTT |  | >125 µM
COc1ncnc(NS(=O)(=O)c2ccc(N=C3C(=O)Nc4ccccc43)cc2)c1OC | ROD | cytopathic effect / MTT |  | >104 µg/mL
CC(=O)OCCOCn1cc(Cn2cnc3c(N)ncnc32)nn1 | ROD | cytopathic effect |  | >100 µg/mL
COc1cccc(Nn2c(-c3ccccc3)c(C)[nH]c2=S)c1 | ROD | cytopathic effect / MTT |  | >38.02 µM
O=C1c2ccccc2N(Cc2ccccc2)S(=O)(=O)N1Cc1ccccc1 | ROD | p24 |  | >125 µM
Cc1cn(C2OC(CO[Si](C)(C)C(C)(C)C)C3(OS(=O)(=O)C=C3N)C2O[Si](C)(C)C(C)(C)C)c(=O)n(/C=C\CO)c1=O | ROD | trypan blue |  | >25 µM
COc1cc2c(cc1OC)C1=NOC(c3cc(OC)c(OC)c(OC)c3)C1C2 | ROD | MTT |  | >66.2 µM
O=C1c2ccccc2N(CC2CCCCC2)S(=O)(=O)N1Cc1ccccc1 | ROD | p24 |  | >125 µM

The last 7 rows once more:

SMILES | strain or isolate | read by | setting | value
COc1ncnc(NS(=O)(=O)c2ccc(N=C3C(=O)Nc4ccccc43)cc2)c1OC | ROD | cytopathic effect / MTT |  | >104 µg/mL
CC(=O)OCCOCn1cc(Cn2cnc3c(N)ncnc32)nn1 | ROD | cytopathic effect |  | >100 µg/mL
COc1cccc(Nn2c(-c3ccccc3)c(C)[nH]c2=S)c1 | ROD | cytopathic effect / MTT |  | >38.02 µM
O=C1c2ccccc2N(Cc2ccccc2)S(=O)(=O)N1Cc1ccccc1 | ROD | p24 |  | >125 µM
Cc1cn(C2OC(CO[Si](C)(C)C(C)(C)C)C3(OS(=O)(=O)C=C3N)C2O[Si](C)(C)C(C)(C)C)c(=O)n(/C=C\CO)c1=O | ROD | trypan blue |  | >25 µM
COc1cc2c(cc1OC)C1=NOC(c3cc(OC)c(OC)c(OC)c3)C1C2 | ROD | MTT |  | >66.2 µM
O=C1c2ccccc2N(CC2CCCCC2)S(=O)(=O)N1Cc1ccccc1 | ROD | p24 |  | >125 µM